Compound potency records, mixed from different reports. Data source: NIAID ChemDB in PubChem.

All rows: whole-cell or culture tests; species: Cryptococcus neoformans

An empty or dashed field is not shown.

| SMILES | strain | measure | read by | value |
|---|---|---|---|---|
| COc1cc(O)c2c(c1)C(=O)c1c(cc3c(c1O)-c1c(cc(C)c(C(=O)NC(C)C(=O)O)c1O)[C@H](OC1OC(C)C(F)CC1OC1OCC(O)C(O)C1O)[C@H]3O)C2=O | IAM 4514 | MIC |  | >100 µg/mL |
| COc1cccc(/C=C/C(=O)c2ccc(Br)cc2)c1OC | ATCC 32264 | MIC |  | >50 µg/mL |
| COc1cc(O)c2c(c1)C(=O)c1c(cc3c(c1O)-c1c(cc(C)c(C(=O)NC(C)C(=O)O)c1O)[C@H](OC1OC(C)C(F)C(OC4OCC(O)C(O)C4O)C1O)[C@H]3O)C2=O | IAM 4514 | MIC |  | 12.5 µg/mL |
| COc1cc(O)c2c(c1)OC(c1ccc(O)cc1)CC2=O | KN99alpha | MIC | broth dilution | 320 µg/mL |
| C[C@@]12CCC[C@]3(C)C4=CC(=O)OC(O)[C@]45O[C@@H]5C(OC1=O)[C@@H]23 | ATCC90112 | MIC |  | >64 µg/mL |
| Oc1cccc2c1CC(Nc1ccccc1)CC2 |  | MIC |  | 16 µM |
| C=C(CC[C@@H](C)[C@H]1C[C@@H](O)[C@@]2(C(=O)O)C3=C(CC[C@]12C)[C@@]1(C)CC[C@H](O[C@@H]2O[C@@H](CO)[C@H](OC)[C@@H](O)[C@@H]2O)C(=C)[C@@H]1CC3)C(C)C | MY2062 | MIC |  | 32 µg/mL |
| CC(C/C=C/C=C/CC/C=C\C=C\CCC(C)(C)C)C(O)C(O)C(O)C(O)C(O)C1OC(=O)C(O)C1O | D49 | MIC |  | 3.1 µg/mL |
| CC(CCC(O)C(C)(O)CO)C1(O)CCC2(C)C3=C(CCC21C)C1(C)CCC(OC(=O)CCC(=O)O)C(C)(C)C1CC3 | MY2062 | MIC |  | 32 µg/mL |
| Oc1ccc2c(c1)CC(Nc1ccccc1)CC2 |  | MIC |  | 64 µM |
| CN[C@@H]1[C@H](O[C@@H]2OC[C@@H](O)[C@H](O)[C@H]2O)[C@@H](O)[C@H](O[C@H]2c3cc(C)c(C(=O)N4CCC[C@@H]4C(=O)O)c(O)c3-c3c(cc4c(c3O)C(=O)c3cc(OC)cc(O)c3C4=O)[C@@H]2O)O[C@@H]1C | IAM 4514 | MIC |  | >100 µg/mL |
| COC(=O)Nc1nc2ccccc2[nH]1 | IU4 | EC90 |  | 3.6 µg/mL |
| COc1cc(O)c2c(c1)C(=O)c1c(cc3c(c1O)-c1c(cc(C)c(C(=O)NC(C)C(=O)O)c1O)[C@H](OC1OCC(O)C(O)C1O)[C@H]3O)C2=O | IAM 4514 | MIC |  | >100 µg/mL |
| CN[C@@H]1[C@H](O[C@@H]2OC[C@@H](O)[C@H](O)[C@H]2O)[C@@H](O)[C@H](O[C@H]2c3cc(C)c(C(=O)N[C@H](CN)C(=O)O)c(O)c3-c3c(cc4c(c3O)C(=O)c3cc(OC)cc(O)c3C4=O)[C@@H]2O)O[C@@H]1C | IAM 4514 | MIC |  | 1.6 µg/mL |
| CC(C)(C)c1ccc(CN(Cc2cccc3ccccc23)N2C=NNC2)cc1 |  | MIC |  | >200 µM |
| COc1cc(O)c2c(c1)C(=O)c1c(cc3c(c1O)-c1c(cc(C)c(C(=O)NC(C)C(=O)O)c1O)[C@H](OC1OC(C)C(O)C1O)[C@H]3O)C2=O | IAM 4514 | MIC |  | >100 µg/mL |
| CC(=O)O[C@@H]1C[C@@]23C(=O)OC[C@](C)([C@@H]2CC[C@H]2C3=CC[C@@]3(C)[C@H](C(=O)O)[C@@](C)([C@H](C)C(C)C)CC[C@]23C)[C@H]1O[C@@H]1O[C@H](CO)[C@@H](O)[C@H](O)[C@H]1O | MY2062 | MIC |  | >64 µg/mL |
| OC(Cn1cncn1)(Cn1cncn1)c1ccc(F)cc1F | H99 ΔFRR1 mutant | MIC |  | 6.25 µg/mL |
| COC(=O)Nc1nc2ccc(C(=O)c3cccs3)cc2[nH]1 | ATCC 14116 | EC50 |  | 0.2 µg/mL |
| CCCCCCCCCCCCCCCCCCCO | ATCC 208821 | MIC | broth dilution | 100 µg/mL |
| COc1ccc(C(=O)CC(c2ccc3ccccc3c2)C(C#N)C#N)c(OC)c1 | ATCC 32264 | MIC |  | >50 µg/mL |
| CCC(C)CC(C)CCCCCCCCC(=O)N[C@H]1C[C@@H](O)[C@H](NCCN)NC(=O)[C@@H]2[C@@H](O)CCN2C(=O)[C@H]([C@H](O)CCN)NC(=O)[C@H]([C@H](O)[C@@H](O)c2ccc(O)cc2)NC(=O)[C@@H]2C[C@@H](O)CN2C(=O)[C@H]([C@@H](C)O)NC1=O | MY2061 | MIC |  | 16 µg/mL |
| CN[C@@H]1[C@H](O[C@@H]2OC[C@@H](O)[C@H](O)[C@H]2O)[C@@H](O)[C@H](O[C@H]2c3cc(C)c(C(=O)N[C@H](C)C(=O)O)c(O)c3-c3c(cc4c(c3O)C(=O)c3cc(OC)cc(O)c3C4=O)[C@@H]2O)O[C@@H]1C | IAM 4514 | MIC |  | 0.8 µg/mL |
| COC(=O)[C@]12CCC(C)(C)C=C1C1CCC3[C@@]4(C)CCC(=O)C(C)(C)C4CC[C@@]3(C)[C@]1(C)CC2 | ATCC 208821 | MLC | broth dilution | 200 µg/mL |
| CCCCNC(=O)n1c(NC(=O)OC)nc2ccccc21 | ATCC 14116 | EC50 |  | <3.5 µg/mL |
| COc1ccc(/C=C/C(=O)c2ccc(C)cc2)cc1 | ATCC 32264 | MIC |  | >50 µg/mL |
| COc1cccc2c1CC(Nc1ccccc1)CC2 |  | MIC |  | 64 µM |
| CN(C/C=C/c1ccccc1)Cc1cccc2ccccc12 |  | MIC |  | >200 µM |
| CCCCCCCCCNC1CCc2ccc(O)cc2C1 |  | MIC |  | 0.5 µM |
| O=C(/C=C/c1ccccc1[N+](=O)[O-])c1ccccc1 | ATCC 32264 | MIC |  | >50 µg/mL |
| CC(C)(C)[C@](O)(COc1ccc(Cl)cc1)Cn1cncn1 |  | MIC50 |  | <0.01 µg/mL |
| COc1ccc(/C=C/C(=O)c2ccccc2)cc1OC | ATCC 32264 | MIC |  | >50 µg/mL |
| CCC(C)CC(C)CCCCCCCCC(=O)N[C@H]1C[C@@H](O)[C@H](NCCN)NC(=O)[C@@H]2[C@@H](O)CCN2C(=O)[C@H]([C@H](O)CCN)NC(=O)[C@H]([C@H](O)[C@@H](O)c2ccc(O)cc2)NC(=O)[C@@H]2C[C@@H](O)CN2C(=O)[C@H]([C@@H](C)O)NC1=O | H99 ΔCNA1 mutant | MIC |  | 6.25 µg/mL |
| C(=C\c1ccccc1)/CN(Cc1cccc2ccccc12)n1ccnc1 |  | MIC |  | >200 µM |
| Cc1c(N)nc([C@H](CC(N)=O)NC[C@H](N)C(N)=O)nc1C(=O)N[C@H](C(=O)N[C@H](C)[C@@H](O)[C@H](C)C(=O)N[C@H](C(=O)NCCc1nc(-c2nc(C(=O)NCCC[S+](C)C)cs2)cs1)[C@@H](C)O)C(O[C@@H]1O[C@@H](CO)[C@@H](O)[C@H](O)[C@@H]1O[C@H]1O[C@H](CO)[C@@H](O)[C@H](OC(N)=O)[C@@H]1O)c1cnc[nH]1 | Isolate 94-181 | MLC |  | 3.23 µg/mL |
| C=CC[C@@H]1/C=C(/C)C[C@H](C)C[C@H](OC)[C@H]2O[C@@](O)(C(=O)C(=O)N3CCCC[C@H]3C(=O)O[C@H](/C(C)=C/[C@@H]3CC[C@@H](O)[C@H](OC)C3)[C@H](C)[C@@H](O)CC1=O)[C@H](C)C[C@@H]2OC | H99 ΔCNA1 mutant | MIC |  | >25 µg/mL |
| CN[C@@H]1[C@H](O[C@@H]2OC[C@@H](O)[C@H](O)[C@H]2O)[C@@H](O)[C@H](O[C@H]2c3cc(C)c(C(=O)N[C@@H](CN)C(=O)O)c(O)c3-c3c(cc4c(c3O)C(=O)c3cc(OC)cc(O)c3C4=O)[C@@H]2O)O[C@@H]1C | IAM 4514 | MIC |  | >100 µg/mL |
| COC(=O)c1cc(O)c(O)c(O)c1 | ATCC 208821 | MIC | broth dilution | 100 µg/mL |
| COc1ccc(C(=O)/C=C/c2cc3ccccc3nc2Cl)c(OC)c1 | ATCC 32264 | MIC |  | >50 µg/mL |
| CCCCCCCCNC1CCc2cccc(O)c2C1 |  | MIC |  | 16 µM |
| COc1cc(O)c2c(c1)C(=O)c1c(cc3c(c1O)-c1c(cc(C)c(C(=O)NC(C)C(=O)O)c1O)[C@H](OC1OC(C)C(F)C(O)C1O)[C@H]3O)C2=O | IAM 4514 | MIC |  | 12.5 µg/mL |
| CCCCCCCCCCCCNC1CCc2cc(OC)ccc2C1 |  | MIC |  | 8 µM |
| CNC1C(C)OC(O[C@H]2c3cc(C)c(C(=O)NC(C)C(=O)OC)c(O)c3-c3c(cc4c(c3O)C(=O)c3cc(OC)cc(O)c3C4=O)[C@@H]2O)C(O)C1OC1OC(CO)C(O)C1O | IAM 4514 | MIC |  | 6.3 µg/mL |
| CN[C@@H]1[C@H](O[C@@H]2OC[C@@H](O)[C@H](O)[C@H]2O)[C@@H](O)[C@H](O[C@H]2c3cc(C)c(C(=O)NCCN)c(O)c3-c3c(cc4c(c3O)C(=O)c3cc(OC)cc(O)c3C4=O)[C@@H]2O)O[C@@H]1C | IAM 4514 | MIC |  | >100 µg/mL |
| CN[C@@H]1[C@H](O)[C@@H](O)[C@H](O[C@H]2c3cc(C)c(C(=O)N[C@H](C)C(=O)O)c(O)c3-c3c(cc4c(c3O)C(=O)c3cc(OC)cc(O)c3C4=O)[C@@H]2O)O[C@@H]1C | IAM 4514 | MIC |  | 1.6 µg/mL |
| COc1cccc(/C=C/C(=O)c2ccc(Br)cc2)c1 | ATCC 32264 | MIC |  | >50 µg/mL |

Repeating the final 4 entries:

{"SMILES": "CNC1C(C)OC(O[C@H]2c3cc(C)c(C(=O)NC(C)C(=O)OC)c(O)c3-c3c(cc4c(c3O)C(=O)c3cc(OC)cc(O)c3C4=O)[C@@H]2O)C(O)C1OC1OC(CO)C(O)C1O", "strain": "IAM 4514", "measure": "MIC", "value": "6.3 µg/mL"}
{"SMILES": "CN[C@@H]1[C@H](O[C@@H]2OC[C@@H](O)[C@H](O)[C@H]2O)[C@@H](O)[C@H](O[C@H]2c3cc(C)c(C(=O)NCCN)c(O)c3-c3c(cc4c(c3O)C(=O)c3cc(OC)cc(O)c3C4=O)[C@@H]2O)O[C@@H]1C", "strain": "IAM 4514", "measure": "MIC", "value": ">100 µg/mL"}
{"SMILES": "CN[C@@H]1[C@H](O)[C@@H](O)[C@H](O[C@H]2c3cc(C)c(C(=O)N[C@H](C)C(=O)O)c(O)c3-c3c(cc4c(c3O)C(=O)c3cc(OC)cc(O)c3C4=O)[C@@H]2O)O[C@@H]1C", "strain": "IAM 4514", "measure": "MIC", "value": "1.6 µg/mL"}
{"SMILES": "COc1cccc(/C=C/C(=O)c2ccc(Br)cc2)c1", "strain": "ATCC 32264", "measure": "MIC", "value": ">50 µg/mL"}

ECn is the concentration giving n% inhibition of infection, replication or growth. Conditions beyond the fields shown may differ between rows. MIC50, MIC90 and the like: level of inhibition, or share of isolates inhibited.